Test results from ChEMBL document CHEMBL3244238, “In search of anti-Trypanosoma cruzi drugs: new leads from a mouse model” (J Med Chem, 1977).
Activity calls are given as the source filed them.

Legend:
Format in all cases: functional
Trypanosoma cruzi [1] = assay: Antitrypanosomal activity against Trypanosoma cruzi infected in albino CF1 mouse assessed as reduction in number of parasites in blood at 104 mg/kg/day, intramuscular treatment started on day 10 of infection up to day 14
In short: (§1)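 Male CF1 albino mice (4-10 weeks) infected intraperitoneally with 50 000 Brazil-strain T. cruzi trypomastigotes in Hanks' balanced salt solution, pH 7.2. Dosing was intramuscular, twice daily, from day 10 to day 13 afternoon or day 14 morning. Vehicle was 0.1% Tween 80 + 0.5% hydroxyethylcellulose. Seven mice per dose; dose given as total salt weight. Parasites/mL blood counted from day-14 smears; % suppression versus vehicle controls.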

Trypanosoma cruzi [2] = assay: Antitrypanosomal activity against Trypanosoma cruzi infected in albino CF1 mouse assessed as reduction in number of parasites in blood at 52 mg/kg/day, intramuscular treatment started on day 10 of infection up to day 14; in short: as §1
Trypanosoma cruzi [3] = assay: Antitrypanosomal activity against Trypanosoma cruzi infected in albino CF1 mouse assessed as reduction in number of parasites in blood at 13 mg/kg/day, intramuscular treatment started on day 10 of infection up to day 14; in short: as §1

Measured: inhibition

O=[As]c1ccc2[nH]c(=O)[nH]c2c1 (stereo not drawn)
inactive: all assays above
